Experimental findings from US20220033460A1, “IDENTIFICATION AND USE OF T CELL EPITOPES IN DESIGNING DIAGNOSTIC AND THERAPEUTIC APPROACHES FOR COVID-19” (priority 2020, published 2022) are described below.

For this test, the system named is CD8+ T cells. The format is cell-based, human. Conditions: cells of the TCR clonotype specific for the epitope / HLA class I of the same line.

B1: TCR_87: TCR to … / A*02:01 (protein)
TCR alpha: RKEVEQDPGPFNVPEGATVAFNCTYSNSASQSFFWYRQDCRKEPKLLMSVYSSGNEDGRFTAQLNRASQYISLLIRDSKLSDSATYLCVVNQYNDMRFGAGTRLTVKPNIQNPDPAVYQLRDSKSSDKSVCLFTDFDSQTNVSQSKDSDVYITDKTVLDMRSMDFKSNSAVAWSNKSDFACANAFNNSIIPEDTFFPSPESSCDVKLVEKSFETDTNLNFQNLSVIGFRILLLKVAGFNLLMTLRLWSS
TCR beta: DAGVIQSPRHEVTEMGQEVTLRCKPISGHNSLFWYRQTMMRGLELLIYFNNNVPIDDSGMPEDRFSAKMPNASFSTLKIQPSEPRDSAVYFCASFQDQNTGELFFGEGSRLTVLEDLKNVFPPKVAVFEPSEAEISHTQKATLVCLATGFYPDHVELSWWVNGKEVHSGVSTDPQPLKEQPALNDSRYCLSSRLRVSATFWQNPRNHFRCQVQFYGLSENDEWTQDRAKPVTQIVSAEAWGRADCGFTSESYQQGVLSATILYEILLGKATLYAVLVSALVLMAMVKRKDSRG
With B1, the “No. of Cells” value is given as 2.

B2: TCR_84: TCR to … / A*02:01 (protein)
TCR alpha: QTVTQSQPEMSVQEAETVTLSCTYDTSESDYYLFWYKQPPSRQMILVIRQEAYKQQNATENRFSVNFQKAAKSFSLKISDSQLGDAAMYFCAYSGTASKLTFGTGTRLQVTLDIQNPDPAVYQLRDSKSSDKSVCLFTDFDSQTNVSQSKDSDVYITDKTVLDMRSMDFKSNSAVAWSNKSDFACANAFNNSIIPEDTFFPSPESSCDVKLVEKSFETDTNLNFQNLSVIGFRILLLKVAGFNLLMTLRLWSS
TCR beta: SAVISQKPSRDICQRGTSLTIQCQVDSQVTMMFWYRQQPGQSLTLIATANQGSEATYESGFVIDKFPISRPNLTFSTLTVSNMSPEDSSIYLCSVVDRGRFYNEQFFGPGTRLTVLEDLKNVFPPKVAVFEPSEAEISHTQKATLVCLATGFYPDHVELSWWVNGKEVHSGVSTDPQPLKEQPALNDSRYCLSSRLRVSATFWQNPRNHFRCQVQFYGLSENDEWTQDRAKPVTQIVSAEAWGRADCGFTSESYQQGVLSATILYEILLGKATLYAVLVSALVLMAMVKRKDSRG
Turning to B2, the “No. of Cells” value turned out to be 2.

B3: TCR_83: TCR to … / A*24:02 (protein)
TCR alpha: QQKEKSDQQQVKQSPQSLIVQKGGISIINCAYENTAFDYFPWYQQFPGKGPALLIAIRPDVSEKKEGRFTISFNKSAKQFSLHIMDSQPGDSATYFCAASNRGGSEKLVFGKGTKLTVNPYIQNPDPAVYQLRDSKSSDKSVCLFTDFDSQTNVSQSKDSDVYITDKTVLDMRSMDFKSNSAVAWSNKSDFACANAFNNSIIPEDTFFPSPESSCDVKLVEKSFETDTNLNFQNLSVIGFRILLLKVAGFNLLMTLRLWSS
TCR beta: NAGVTQTPKFQVLKTGQSMTLQCAQDMNHEYMSWYRQDPGMGLRLIHYSVGAGITDQGEVPNGYNVSRSTTEDFPLRLLSAAPSQTSVYFCASSYHAGDRGFGYTFGSGTRLTVVEDLNKVFPPEVAVFEPSEAEISHTQKATLVCLATGFFPDHVELSWWVNGKEVHSGVSTDPQPLKEQPALNDSRYCLSSRLRVSATFWQNPRNHFRCQVQFYGLSENDEWTQDRAKPVTQIVSAEAWGRADCGFTSVSYQQGVLSATILYEILLGKATLYAVLVSALVLMAMVKRKDF
Consider B3, for which the “No. of Cells” value was found to be 2.

B4: TCR_85: TCR to … / A*02:01 (protein)
TCR alpha: TGQNIDQPTEMTATEGAIVQINCTYQTSGFNGLFWYQQHAGEAPTFLSYNVLDGLEEKGRFSSFLSRSKGYSYLLLKELQMKDSASYLCAVRDLGGQKLLFARGTMLKVDLNIQNPDPAVYQLRDSKSSDKSVCLFTDFDSQTNVSQSKDSDVYITDKTVLDMRSMDFKSNSAVAWSNKSDFACANAFNNSIIPEDTFFPSPESSCDVKLVEKSFETDTNLNFQNLSVIGFRILLLKVAGFNLLMTLRLWSS
TCR beta: DAGVTQSPTHLIKTRGQQVTLRCSPKSGHDTVSWYQQALGQGPQFIFQYYEEEERQRGNFPDRFSGHQFPNYSSELNVNALLLGDSALYLCASSLGQGSPAGANVLTFGAGSRLTVLEDLKNVFPPKVAVFEPSEAEISHTQKATLVCLATGFYPDHVELSWWVNGKEVHSGVSTDPQPLKEQPALNDSRYCLSSRLRVSATFWQNPRNHFRCQVQFYGLSENDEWTQDRAKPVTQIVSAEAWGRADCGFTSESYQQGVLSATILYEILLGKATLYAVLVSALVLMAMVKRKDSRG
Turning to B4, the “No. of Cells” value was 2.
